# PubChem BioAssay AID1259414 | Drosophila RNAi Screening Center – 2018
# Test: 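Genome-wide screen for host control of endosymbiont load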 (primary screen)
# System: Drosophila JW18 cells infected with Wolbachia
# Knock-down reagent: long dsRNA against Drosophila genes, 0.25 µg dsRNA per well of a 384-well plate
# Duration: 5 days
# Conditions: cells persistently infected with Wolbachia before knock-down; no added drug
# Measured: 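Imaged fluorescence in situ signal for Wolbachia 23S rRNA per DAPI-counted host cell, given as a robust z-score within each plate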
# Scale: Wolbachia per cell robust z: higher = more Wolbachia per host cell than the plate typical
# Active means: 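Active if absolute robust z reaches 1.5 in two or more of three replicates, leaving out multi- or no-target dsRNAs, genes unexpressed in JW18 and A1 wells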
# In all, the deposit lists about 24,000 reagents; below is an unselected part of those that have a named target and a result. Of all reagents, about 1,210 (5%) were called active. 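Inactive calls also include excluded dsRNAs with several or no targets, genes unexpressed in JW18, and well A1, regardless of score.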
target gene,DRSC id,"Wolbachia per cell robust z, rep 1","Wolbachia per cell robust z, rep 2","Wolbachia per cell robust z, rep 3",call
Rph (Rabphilin),DRSC17790,0.66,-1.02,0.233,inactive
Rph (Rabphilin),DRSC23887,0.885,0.883,0.59,inactive
Cyp6a14 (Cytochrome P450 6a14),DRSC07376,-1.63,-1.57,-0.315,active
Cyp6a14 (Cytochrome P450 6a14),DRSC24704,0.706,1.56,0.956,inactive
Cpr65Aw (Cuticular protein 65Aw),DRSC08794,-1.66,-0.942,-0.616,inactive
rau,DRSC03125,0.375,-0.65,-1.16,inactive
rau,DRSC29748,-0.0104,-0.58,-0.663,inactive
CG30486,DRSC06680,0.894,-0.696,0.763,inactive
Ppm1,DRSC08260,0.32,-2.9,-1.2,inactive
Ppm1,DRSC27792,-0.787,0.347,-0.0146,inactive
CG14219,DRSC19576,1.2,0.583,0.743,inactive
CG14219,DRSC26450,0.185,-0.333,0.242,inactive
CG32971,DRSC01372,0.583,-1.05,-0.363,inactive
grass (Gram-positive Specific Serine protease),DRSC15911,0.619,0.602,0.815,inactive
Sptz (Spastizin),DRSC15758,0.825,-0.118,0.525,inactive
Sptz (Spastizin),DRSC27382,-0.00782,0.864,-0.163,inactive
Yod1 (Yod1 deubiquitinase),DRSC10433,-0.132,0.788,0.473,inactive
Yod1 (Yod1 deubiquitinase),DRSC27122,-1.93,-0.62,-0.439,inactive
CG15040,DRSC19616,-0.921,-0.181,-0.204,inactive
CG15040,DRSC21482,0.415,-0.953,0.909,inactive
CG15040,DRSC29466,-0.726,0.836,-0.924,inactive
Pgm2a (Phosphoglucomutase 2a),DRSC07068,0.243,0.915,0.349,inactive
Cpr78Cc (Cuticular protein 78Cc),DRSC11846,0.825,-0.144,1.34,inactive
CG16853,DRSC01877,1.37,-0.0521,0.392,inactive
Zmynd8 (Zinc finger MYND-type containing 8),DRSC15310,0.607,0.765,0.933,inactive
Zmynd8 (Zinc finger MYND-type containing 8),DRSC29554,1.6,1.33,1.65,active

Sorted by “Wolbachia per cell robust z, rep 1” (descending): 4 of the entries above.
target gene,DRSC id,"Wolbachia per cell robust z, rep 1","Wolbachia per cell robust z, rep 2","Wolbachia per cell robust z, rep 3",call
Sptz (Spastizin),DRSC15758,0.825,-0.118,0.525,inactive
grass (Gram-positive Specific Serine protease),DRSC15911,0.619,0.602,0.815,inactive
CG32971,DRSC01372,0.583,-1.05,-0.363,inactive
Sptz (Spastizin),DRSC27382,-0.00782,0.864,-0.163,inactive

Next reagents follow.
target gene,DRSC id,"Wolbachia per cell robust z, rep 1","Wolbachia per cell robust z, rep 2","Wolbachia per cell robust z, rep 3",call
wge (winged eye),DRSC15246,-0.213,1.04,-0.263,inactive
wge (winged eye),DRSC15672,-0.218,0.0149,-1.31,inactive
CLIP-190 (Cytoplasmic linker protein 190),DRSC03283,-0.0919,-0.481,-0.392,inactive
CLIP-190 (Cytoplasmic linker protein 190),DRSC30075,0.605,-0.802,0.709,inactive
CG32432,DRSC11744,0.673,1.36,-0.483,inactive
CG12730,DRSC17885,-5.99,-0.141,-0.148,inactive
CG2157,DRSC19836,-1.89,-2.04,0.251,inactive
Torsin,DRSC18570,-0.967,0.318,0.693,inactive
CG16743,DRSC24981,-0.114,-0.058,-1.73,inactive
Vkor (Vitamin-K epoxide reductase),DRSC37855,0.534,1.18,0.351,inactive
CG13123,DRSC02219,0.747,-0.463,0.224,inactive
rha,DRSC17044,-9.98,0.017,3.09,inactive
CG15208,DRSC19654,-3.62,0.386,-0.797,inactive
spag (spaghetti),DRSC04717,1.46,-0.628,1.23,inactive
zda (zonda),DRSC06936,-1.05,-0.378,-0.798,inactive
zda (zonda),DRSC25289,-1.46,-1.57,-1.75,active
Sfp33A2 (Seminal fluid protein 33A2),DRSC40645,-0.106,-0.693,-0.801,inactive
Arl8 (ADP ribosylation factor-like 8),DRSC16334,0.953,0.0272,-0.348,inactive
CG17224,DRSC00489,0.408,1.08,0.0381,inactive
Frq2 (Frequenin 2),DRSC20245,-0.219,0.929,0.294,inactive
Frq2 (Frequenin 2),DRSC26037,0.706,1.19,0.777,inactive
